Laboratory results taken from PubChem BioAssay AID375 (SRMLSC, 2006).
The entries are a selection whose mix differs from that of the whole data set. Activity calls are given as the source filed them. The rule behind the calls is not given here.

Amino acid sequences for entries named in this document (tags omitted).
UniProt P9WIL5, whole entry: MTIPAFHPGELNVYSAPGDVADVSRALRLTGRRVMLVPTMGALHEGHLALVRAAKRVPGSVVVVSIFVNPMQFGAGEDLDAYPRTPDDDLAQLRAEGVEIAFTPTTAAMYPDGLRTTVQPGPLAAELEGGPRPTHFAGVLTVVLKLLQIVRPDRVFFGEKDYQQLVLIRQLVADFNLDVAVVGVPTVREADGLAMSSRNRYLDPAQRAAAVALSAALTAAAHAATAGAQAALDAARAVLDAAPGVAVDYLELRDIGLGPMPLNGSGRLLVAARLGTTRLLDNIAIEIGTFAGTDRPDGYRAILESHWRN

biological target: Pantothenate synthetase (Mycobacterium tuberculosis (strain ATCC 25618 / H37Rv)) (UniProt P9WIL5); assay: Coupled enzyme confirmation of inhibitors against recombinant Mtb PanC (AID 375); conditions: coupled enzyme assay, at 10 µM, stronger effect = higher value;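 note: 0% = full reaction with vehicle and 100% = no enzyme background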

| SMILES | inhibition |
| --- | --- |
| Fc1ccccc1NC1CCN(Cc2ccccc2)CC1 | inactive: 9% |
